Assay results: ChEMBL document CHEMBL3988442, “University of Dundee, Small-Polar-MMV Screening Library” (2021)
Where “and” joins values, the source holds several entries; their conditions need not be identical. Identical values can stand only once. This is a selection: effects in other tests are not listed, and their absence says nothing.

The chains behind the UniProt entries cited, without tags or fusion partners. Residues count along the entry.
UniProt A4I591, 1-473: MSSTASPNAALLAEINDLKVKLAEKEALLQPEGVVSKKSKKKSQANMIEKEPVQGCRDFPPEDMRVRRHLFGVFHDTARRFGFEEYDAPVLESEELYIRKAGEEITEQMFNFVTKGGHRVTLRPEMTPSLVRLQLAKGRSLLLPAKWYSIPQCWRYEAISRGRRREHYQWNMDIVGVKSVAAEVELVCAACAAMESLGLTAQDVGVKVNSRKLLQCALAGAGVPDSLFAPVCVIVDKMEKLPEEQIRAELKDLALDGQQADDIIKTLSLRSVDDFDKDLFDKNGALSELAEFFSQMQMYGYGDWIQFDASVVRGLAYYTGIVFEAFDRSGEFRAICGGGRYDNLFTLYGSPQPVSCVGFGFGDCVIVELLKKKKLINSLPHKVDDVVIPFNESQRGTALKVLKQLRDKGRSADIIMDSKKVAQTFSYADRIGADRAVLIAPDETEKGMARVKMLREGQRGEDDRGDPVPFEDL

What was measured:
Histidine--tRNA ligase = Histidine--tRNA ligase (Leishmania infantum, UniProt A4I591); test: Leishmania infantum Histidine tRNA synthetase (LdHisRS); type: functional
[1] = In vitro enzyme assay to detect hydrolysis of chlorophenol red-beta-D-[…] directly proportional to the number of Toxoplasma stably expressing beta-galactosidase; type: functional, organism-based, Toxoplasma gondii

COc1ccc(NC2CCN(CCc3ccccc3)CC2)cc1OC
pIC50 (Histidine--tRNA ligase): 4.42 and 4.34

COc1ccc(CN2CCC(Nc3ccc(Br)cc3)CC2)c(OC)c1
pIC50 [1]: 5.03

CCN1CCC(Nc2ccc(OC)c(OC)c2)CC1
pIC50 (Histidine--tRNA ligase): 4.46 and 4.27
